Experimental data taken from ChEMBL document CHEMBL1201862, “PubChem BioAssay data set” (2004).
This is a selection; strong and weak results do not stand in their true shares. These assays gave more results; the selection is not random. The source made the active and inactive calls. No cut-off for these calls is given here.

These compounds were tested against T1, Aldehyde dehydrogenase 1A1 (Homo sapiens) (UniProt P00352) (assay: qHTS Assay for Inhibitors of Aldehyde Dehydrogenase 1 (ALDH1A1). [Related pubchem assays: 1030 (qHTS Validation Assay for Inhibitors of aldehyde dehydrogenase 1 (ALDH1A1))]).
T1 sequence (whole entry): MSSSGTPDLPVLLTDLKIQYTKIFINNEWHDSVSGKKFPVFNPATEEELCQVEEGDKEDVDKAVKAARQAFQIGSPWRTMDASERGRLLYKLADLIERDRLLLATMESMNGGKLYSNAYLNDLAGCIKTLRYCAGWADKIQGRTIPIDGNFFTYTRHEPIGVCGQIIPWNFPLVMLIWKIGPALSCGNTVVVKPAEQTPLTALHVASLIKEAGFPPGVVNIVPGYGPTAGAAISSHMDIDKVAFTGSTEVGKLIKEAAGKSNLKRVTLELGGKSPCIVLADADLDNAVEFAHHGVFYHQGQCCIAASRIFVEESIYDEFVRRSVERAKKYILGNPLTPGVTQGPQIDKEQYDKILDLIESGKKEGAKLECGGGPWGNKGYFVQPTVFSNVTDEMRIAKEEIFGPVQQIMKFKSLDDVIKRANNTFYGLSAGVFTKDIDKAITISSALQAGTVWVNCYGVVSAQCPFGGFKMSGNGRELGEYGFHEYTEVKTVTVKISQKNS
Type: functional

| SMILES | Potency |
| --- | --- |
| NC1CCCCC1.NP(=O)(O)N(CCCl)CCCl | inactive |
